Source: patent US20040076637A1, “HIV-derived HR1 peptides modified to form stable trimers, and their use in therapy to inhibit transmission of human immunodeficiency virus” (priority 2002, published 2004)

Assay: Thermal stability (Tm) by CD signal at 222 nm
Assay type: physicochemical
Details: at 10 μM
Description: Helicity was assessed by circular dichroism (“CD”) as follows. Briefly, CD spectra were obtained using a spectrometer equipped with a thermoelectric temperature controller. The spectra was obtained at 25° C. with 0.5 nanometer (nm) steps from 200 to 260 nm, with a 1.5 nm bandwith, and a typical averaging time of 4 seconds/step. After the cell/buffer blank was subtracted, spectra were smoothed using a third-order least-squares polynomial fit with a conservative window size to give random residuals. Raw ellipticity values were converted to mean residue ellipticity using standard methods, and plotted was the wavelength (from 200 to 260 nm) versus [θ]×10^−3 (degrees cm^2/dmol). Percent helicity values were then calculated using standard methods. Assessment of thermal stability was performed by monitoring the change in CD signal at 222 nm as temperature was raised in 2° C. steps, with 1 minute equilibration times. The thermal stability for each sample (e.g., synthetic peptide) was represented by the transition temperature (Tm) determined by the derivative method.

Structure (SMILES)	Stability Tm
CC[C@H](C)[C@H](NC(=O)CNC(=O)[C@H](Cc1c[nH]c2ccccc12)NC(=O)[C@H](C)NC(=O)[C@@H](NC(=O)[C@H](CC(C)C)NC(=O)[C@H](CCC(N)=O)NC(=O)[C@H](CC(C)C)NC(=O)[C@H](CC(C)C)NC(=O)[C@H](Cc1c[nH]cn1)NC(=O)[C@H](CCC(N)=O)NC(=O)[C@H](CCC(N)=O)NC(=O)[C@H](C)NC(=O)[C@H](CCC(=O)O)NC(=O)[C@@H](NC(=O)[C@H](C)NC(=O)[C@H](CCCNC(=N)N)NC(=O)[C@H](CC(C)C)NC(=O)[C@H](CC(C)C)NC(=O)[C@H](CC(N)=O)NC(=O)[C@H](CC(N)=O)NC(=O)[C@H](CCC(N)=O)NC(=O)[C@H](CCC(N)=O)NC(=O)[C@H](CCC(N)=O)NC(C)=O)[C@@H](C)CC)[C@@H](C)O)C(=O)N[C@@H](CCCCN)C(=O)N[C@@H](CCC(N)=O)C(=O)N[C@@H](CC(C)C)C(=O)N[C@@H](CCC(N)=O)C(=O)N[C@@H](C)C(=O)N[C@@H](CCCNC(=N)N)C(=O)N[C@H](C(=O)N[C@@H](CC(C)C)C(=O)N[C@@H](C)C(=O)N[C@H](C(=O)N[C@@H](CCC(=O)O)C(=O)N[C@@H](CCCNC(=N)N)C(=O)N[C@@H](Cc1ccc(O)cc1)C(=O)N[C@@H](CC(C)C)C(=O)N[C@@H](CCCCN)C(=O)N[C@@H](CC(=O)O)C(=O)N[C@@H](CCC(N)=O)C(N)=O)C(C)C)[C@@H](C)CC [SEQ ID NO: 29]	65 °C
CC[C@H](C)[C@H](NC(=O)CNC(=O)[C@H](Cc1c[nH]c2ccccc12)NC(=O)[C@@H](NC(=O)[C@@H](NC(=O)[C@H](CC(C)C)NC(=O)[C@H](CCC(N)=O)NC(=O)[C@H](CC(C)C)NC(=O)[C@H](CC(C)C)NC(=O)[C@H](Cc1c[nH]cn1)NC(=O)[C@H](CCC(N)=O)NC(=O)[C@@H](NC(=O)[C@H](C)NC(=O)[C@H](CCC(=O)O)NC(=O)[C@@H](NC(=O)[C@H](C)NC(=O)[C@H](CCCNC(=N)N)NC(=O)[C@H](CC(C)C)NC(=O)[C@H](CC(C)C)NC(=O)[C@H](CC(N)=O)NC(=O)[C@H](CC(N)=O)NC(=O)[C@H](CCC(N)=O)NC(=O)[C@H](CCC(N)=O)NC(=O)[C@H](CCC(N)=O)NC(=O)[C@@H](NC(=O)[C@@H](NC(=O)CNC(=O)[C@H](CO)NC(=O)[C@H](CC(C)C)NC(=O)[C@H](CC(C)C)NC(=O)[C@H](CCC(N)=O)NC(=O)[C@H](CCCNC(=N)N)NC(=O)[C@@H](NC(=O)[C@H](CCC(N)=O)NC(C)=O)[C@@H](C)CC)[C@@H](C)CC)C(C)C)[C@@H](C)CC)[C@@H](C)CC)[C@@H](C)CC)C(C)C)C(=O)N[C@@H](CCCCN)C(=O)N[C@@H](CCC(N)=O)C(=O)N[C@@H](CC(C)C)C(=O)N[C@@H](CCC(N)=O)C(=O)N[C@@H](C)C(=O)N[C@@H](CCCNC(=N)N)C(=O)N[C@H](C(=O)N[C@@H](CC(C)C)C(=O)N[C@@H](C)C(=O)N[C@H](C(=O)N[C@@H](CCC(=O)O)C(=O)N[C@@H](CCCNC(=N)N)C(=O)N[C@@H](Cc1ccc(O)cc1)C(=O)N[C@@H](CC(C)C)C(=O)N[C@@H](CCCCN)C(N)=O)C(C)C)[C@@H](C)CC [SEQ ID NO: 42]	Tm > 97 °C
